# Fitness of HIV-1 1203 Vif variants in SupT1-APOBEC3G cells

Data from the supplement of Langley et al. 2025, preprint, doi:10.1101/2025.10.20.683452.

Scanned stretch, residues 12 to 115 of Vif from HIV-1 1203 (a subtype B primary isolate):
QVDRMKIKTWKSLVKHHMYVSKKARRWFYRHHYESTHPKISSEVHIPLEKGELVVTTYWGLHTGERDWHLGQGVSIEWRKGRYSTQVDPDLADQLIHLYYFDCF

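Pooled viruses with one designed change each in Vif went through two 72 h rounds in SupT1 cells expressing APOBEC3G. Frequencies after the second round, in three biological replicates, were compared with the merged pool after the first round. Changes do not touch integrase, since the pol overlap was removed.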

Scale: log2 enrichment, wild type = 0; negative values mean that the variant was depleted.
Each entry names the wild-type residue, its position and the residue put in its place.
All changes here are to serine.
The median of three replicates is given.
Input reads are the counts in the merged round-one pool, before selection.
Positive scores are uncertain; some enriched variants did not exclude APOBEC3G in a separate test.

R15S (input reads 676) gave -0.30. M16S (input reads 533) gave -0.89. K17S (input reads 38) gave -0.50. With I18S (input reads 20) the assay gave 1.67. With K26S (input reads 289) the assay gave -1.40. For H28S (input reads 282) the result was -1.97.

Y30S (input reads 335) gave -1.89. For V31S (input reads 1172) the result was -2.08. With K34S (input reads 379) the assay gave -1.96. For R36S (input reads 35) the result was 0.66. W38S (input reads 182) gave -1.84. F39S (input reads 2154) gave -2.11.

Y40S (input reads 21) read -0.22. With H42S (input reads 477) the assay gave -0.24. H43S (input reads 1149) read -2.51. For E54S (input reads 1934) the result was -2.01. V55S (input reads 209) read -1.89. P58S (input reads 90) read -2.96.

With G62S (input reads 2243) the assay gave -2.19. E63S (input reads 523) gave 0.51. With V65S (input reads 18) the assay gave -2.63. V66S (input reads 208) read -1.28. L72S (input reads 60) gave -4.35. For G75S (input reads 25) the result was 0.11.

For D78S (input reads 292) the result was -2.90. W79S (input reads 167) gave -2.62. For Q83S (input reads 204) the result was -2.27. With G84S (input reads 72) the assay gave -3.03. For W89S (input reads 241) the result was -2.42. With Y94S (input reads 115) the assay gave -1.99.

With D99S (input reads 62) the assay gave -4.46. P100S (input reads 111) gave -1.68. D101S (input reads 21) gave -2.64. With H108S (input reads 127) the assay gave -2.20. L109S (input reads 132) read -2.65. For Y110S (input reads 98) the result was -4.62.

For F112S (input reads 74) the result was -2.64.

4 of these entries, quoted again:

| substitution | input reads | median log2 enrichment |
|---|---|---|
| M16S | 533 | -0.89 |
| V66S | 208 | -1.28 |
| V65S | 18 | -2.63 |
| D99S | 62 | -4.46 |

The scan is noisy: the rank correlation of replicates is about 0.4 to 0.65, and variants with under about 50 input reads tend to read too high.
Not every substitution is listed.